The target of the series is PhoP (PhoPmas) WT, phosphorylated with acetyl phosphate (UniProt B1MHU9). Briefly: EMSA. Conditions: acetyl phosphate-treated, binding enhanced vs unphosphorylated, […] (binding temperature not stated), recombinant protein, protein details: N-terminal His6 (pET14b), label: IRDye700 on both primers, probe letters rebuilt from the primers and the genome.

For at least one entry, the source does not settle the construct or the ends of the probe.

Data on 1 sequence can be found in publication PMC10715180.

As for “AGGTAATCTTCCCCCCAAAATTTACGATGCGCTGGATCTTCACTGTGAGCTTCCTGTGAGTTACTCACAGCAGATTGTCAGCCAACCGCGCCAGGTCGCCCTACAGTTGAGCC (double strand) [phoP promoter probe WT]”, the binding result was “binds”.
